# Values of other authors, collected in publication PMC4311985, “Molecular Surveillance of Antiviral Drug Resistance of Influenza A/H3N2 Virus in Singapore, 2009-2013” (PLoS ONE, 2015).
# Test system: NA D251G
# Details: cited from earlier work
compound,measurement,value
"CC(=O)N[C@H]1[C@H]([C@H](O)[C@H](O)CO)OC(C(=O)O)=C[C@@H]1N=C(N)N [Zanamivir, zanamivir]",level of drug resistance,low levels
